Anti-infective test results gathered from many reports (values: NIAID ChemDB through PubChem).

All rows: growth or infection tests; agent: Candida albicans

Blank or dashed fields: not listed here.

compound	method	strain or isolate	read-out	value
CNc1ccc(C(=O)CC(O)CCC(C)C2OC(=O)CC(O)CC(=O)CC(O)CC(O)CC(O)CC(O)CC3(O)CC(O)C(C(=O)O)C(CC(O[C@@H]4O[C@H](C)[C@@H](O)[C@H](N)[C@@H]4O)/C=C/C=C/C=C/C=C\C=C/C=C/C=C/C2C)O3)cc1	-	73	MIC	0.12 µg/mL
Cc1ccc(-c2nnc(SCC(O)(Cn3cncn3)c3ccc(F)cc3F)n2N)cc1	broth dilution	PTCC 6027	MIC	>64 µg/mL
C[C@H](n1nnc(CCN2CCN(c3cccc(Cl)c3)CC2)n1)[C@](O)(Cn1cncn1)c1ccc(F)cc1F	-	-	MIC	2 µg/mL
Cn1nc2c(=O)n(-c3ccc(C(=O)O)cc3)nc(-c3ccccc3)c2c1-c1ccccc1	-	ATCC 27541	MIC	0.15 µg/mL
Nn1c(SCC(O)(Cn2cncn2)c2ccc(F)cc2F)nnc1-c1ccncc1	broth dilution	ATCC 18804	MIC	>64 µg/mL
COc1ccc(NC(=O)OCC(O)CN2CCN(c3cccc(F)c3)CC2)cc1	-	CCM 8186	MIC	780 µg/mL
COc1ccccc1N1CCN(CCc2nnnn2[C@@H](C)[C@](O)(Cn2cncn2)c2ccc(F)cc2F)CC1	-	-	MIC	4 µg/mL
O=C(Nc1ccc(Cl)cc1)c1ccccc1O	-	ATCC 44859	MIC	62.5 µM
O=C(N/N=C/c1cc2ccccc2nc1Cl)c1sc(=S)n(-c2ccccc2)c1/N=C/c1cccc(O)c1	broth dilution	MTCC 227	MIC	250 µg/mL
O=C(Nc1cccc(Cl)c1)c1ncccc1O	-	ATCC 44859	MIC	>125 µM
C[C@@H](c1ncncc1F)[C@](O)(Cn1cncn1)c1ccc(F)cc1F	broth dilution	M61	MIC	0.01 µg/mL
Nn1c(SCC(O)(Cn2cncn2)c2ccc(F)cc2F)nnc1-c1cccc(Br)c1	broth dilution	IRFC 37	MIC	>64 µg/mL
CNc1ccc(C(=O)CC(O)CCC(C)C2OC(=O)CC(O)CC(=O)CC(O)CC(O)CC(O)CC(O)CC3(O)CC(O)C(C(=O)NCCN(C)C)C(CC(O[C@@H]4O[C@H](C)[C@@H](O)[C@H](NC(=O)CN(C)C)[C@@H]4O)/C=C/C=C/C=C/C=C\C=C/C=C/C=C/C2C)O3)cc1	-	200	MIC	0.06 µg/mL
Nn1c(SCC(O)(Cn2cncn2)c2ccc(F)cc2F)nnc1-c1ccc(Cl)cc1	broth dilution	PTCC 6027	MIC	>64 µg/mL
CCOC(=O)c1cc(-c2ccc(Cl)cc2)n(CCn2c([N+](=O)[O-])cnc2C)c1C	-	-	MIC	>1024 µg/mL
C=CCc1ccc(O)c(OC)c1	turbidity	3031	MIC90	490 µg/mL
Cn1nc2c(=O)n(C)nc(-c3ccccc3)c2c1-c1ccccc1	-	ATCC 27541	MIC	0.31 µg/mL
C[C@@H]1Oc2cc(Cl)ccc2/C(=N/OCc2ccccc2)[C@H]1n1ccnc1	-	ATCC 10231	MFC	>64 µg/mL
CC(C(=O)O)N1C(=O)CSC1c1ccccn1	broth dilution	-	EC50	27.14 µM
C[C@H](n1nnnc1CCN1CCN(C(c2ccccc2)c2ccccc2)CC1)[C@](O)(Cn1cncn1)c1ccc(F)cc1F	-	-	MIC	4 µg/mL
O=C(N/N=C/c1cc2ccccc2nc1Cl)c1sc(=S)n(-c2ccccc2)c1/N=C/c1ccccc1	broth dilution	MTCC 227	MIC	500 µg/mL
COc1ccccc1C1SCC(=O)N1CC(=O)O	broth dilution	-	EC50	79.49 µM
O=C(Nc1ccccc1)c1ccccc1O	-	ATCC 44859	MIC	125 µM
CCCCc1ccccc1N1CCN(CCc2nnnn2[C@@H](C)[C@](O)(Cn2cncn2)c2ccc(F)cc2F)CC1	-	V-01-191A-261 (resistant)	MIC	0.5 µg/mL
CCCOc1ccc(NC(=O)OCC(O)CN2CCN(c3cccc(F)c3)CC2)cc1	-	CCM 8186	MIC	390 µg/mL
CC(C)CC(=O)c1c(O)cc(O)c(C=O)c1O	-	-	EC50	>20 µg/mL
C[C@@H]1Oc2ccccc2/C(=N/OCc2ccc(Cl)cc2Cl)[C@H]1n1cncn1	-	ATCC 10231	MIC	8 µg/mL
O=C(O)CN1C(=O)CCSC1c1ccccn1	broth dilution	-	EC50	80.51 µM
CNc1ccc(C(=O)CC(O)CCC(C)C2OC(=O)CC(O)CC(=O)CC(O)CC(O)CC(O)CC(O)CC3(O)CC(O)C(C(=O)N4CCN(C)CC4)C(CC(O[C@@H]4O[C@H](C)[C@@H](O)[C@H](NC(=O)CN5CCN(CCO)CC5)[C@@H]4O)/C=C/C=C/C=C/C=C\C=C/C=C/C=C/C2C)O3)cc1	-	73	MIC	0.03 µg/mL
C[C@H](n1nnc(CCN2CCN(c3ccc([N+](=O)[O-])cc3)CC2)n1)[C@](O)(Cn1cncn1)c1ccc(F)cc1F	-	-	MIC	2 µg/mL
Nn1c(SCC(O)(Cn2cncn2)c2ccc(Cl)cc2Cl)nnc1-c1ccc(Cl)cc1Cl	broth dilution	IRFC 37	MIC	2 µg/mL
C[C@@H]1Oc2ccccc2/C(=N/OCc2ccc(Br)cc2)[C@H]1n1ccnc1	-	ATCC 10231	MIC	8 µg/mL
C[C@H](n1nnc(CCN2CCN(c3ccccn3)CC2)n1)[C@](O)(Cn1cncn1)c1ccc(F)cc1F	-	V-01-191A-261 (resistant)	MIC	4 µg/mL
O=C(O)C(Cc1ccccc1)N1C(=O)CSC1c1ccccc1	broth dilution	-	EC50	78.49 µM
CCOC(=O)c1cc(-c2ccc(OC)cc2)n(CCn2c([N+](=O)[O-])cnc2C)c1C	-	-	MIC	>1024 µg/mL
O=C(N/N=C/c1cc2ccccc2nc1Cl)c1sc(=S)n(-c2ccccc2)c1/N=C/c1ccccc1F	broth dilution	MTCC 227	MIC	500 µg/mL
CC(C)=CCc1c(O)c(C=O)c(O)c(C(=O)/C(C)=C/O)c1O	-	-	EC50	>20 µg/mL
C[C@@H](SC1COC(c2ccc(C(=O)Nc3ccc(C#N)cc3F)cc2)OC1)[C@](O)(Cn1cncn1)c1ccc(F)cc1F	-	SANK51486	MIC80	0.008 µg/mL
CNc1ccc(C(=O)CC(O)CCC(C)C2OC(=O)CC(O)CC(=O)CC(O)CC(O)CC(O)CC(O)CC3(O)CC(O)C(C(=O)NCCN(C)C)C(CC(O[C@@H]4O[C@H](C)[C@@H](O)[C@H](NC(=O)CN5CCN(CCO)CC5)[C@@H]4O)/C=C/C=C/C=C/C=C\C=C/C=C/C=C/C2C)O3)cc1	-	200	MIC	0.06 µg/mL
CC(=O)c1c(O)cc(O)c(C(C)=O)c1O	-	-	EC50	>20 µg/mL
C[C@@H]1Oc2cc(Cl)ccc2/C(=N/OCc2ccc(Cl)cc2)[C@H]1n1ccnc1	-	ATCC 10231	MFC	>64 µg/mL
CCCCCOc1ccc(-c2ccc(-c3ccc(C(=O)N[C@H]4C[C@@H](O)[C@@H](O)NC(=O)[C@@H]5[C@@H](O)[C@@H](C)CN5C(=O)[C@H]([C@H](C)O)NC(=O)[C@H]([C@H](O)[C@@H](O)c5ccc(O)cc5)NC(=O)[C@@H]5C[C@@H](O)CN5C(=O)[C@H]([C@H](C)O)NC4=O)cc3)cc2)cc1	broth dilution	M61	MIC	0.003 µg/mL
COc1cc(/C=N/c2c(C(=O)N/N=C/c3cc4ccccc4nc3Cl)sc(=S)n2-c2ccccc2)cc(OC)c1OC	broth dilution	MTCC 227	MIC	>1000 µg/mL
C[C@@H]1Oc2ccccc2/C(=N/OCc2cccc(F)c2)[C@H]1n1ccnc1	-	ATCC 10231	MIC	16 µg/mL
CCC(C)CC(C)CCCCCCCCC(=O)N[C@H]1C[C@@H](O)[C@H](NCCN)NC(=O)[C@@H]2[C@@H](O)CCN2C(=O)[C@H]([C@H](O)CCN)NC(=O)[C@H]([C@H](O)[C@@H](O)c2ccc(O)cc2)NC(=O)[C@@H]2C[C@@H](O)CN2C(=O)[C@H]([C@@H](C)O)NC1=O	-	MY1585	MIC	0.25 µg/mL
O=C(Nc1cccc(F)c1)c1ccccc1O	-	ATCC 44859	MIC	125 µM
Nn1c(SCC(O)(Cn2cncn2)c2ccc(Cl)cc2Cl)nnc1-c1ccncc1	broth dilution	IRFC 37	MIC	>64 µg/mL
Cc1c(O)c(C=O)c(O)c(C=O)c1O	-	-	EC50	>20 µg/mL
CCCOc1ccc(NC(=O)OCC(O)CN2CCN(c3ccc(F)cc3)CC2)cc1	-	CCM 8186	MIC	390 µg/mL
O=c1c2nn(-c3ccccn3)c(-c3ccccc3)c2c(-c2ccccc2)nn1-c1cc(Cl)ccc1Cl	-	ATCC 27541	MIC	<0.0024 µg/mL
COc1ccc(-c2nnc(SCC(O)(Cn3cncn3)c3ccc(Cl)cc3Cl)n2N)cc1	broth dilution	PTCC 6027	MIC	8 µg/mL
CNc1ccc(C(=O)CC(O)CCC(C)C2OC(=O)CC(O)CC(=O)CC(O)CC(O)CC(O)CC(O)CC3(O)CC(O)C(C(=O)N4CCN(CCO)CC4)C(CC(O[C@@H]4O[C@H](C)[C@@H](O)[C@H](NC(=O)CN(C)C)[C@@H]4O)/C=C/C=C/C=C/C=C\C=C/C=C/C=C/C2C)O3)cc1	-	73	MIC	0.03 µg/mL
Nc1ncc(/C=C/c2ccc([N+](=O)[O-])o2)nn1	-	-	MIC	10 µg/mL
O=C(N/N=C/c1cc2ccccc2nc1Cl)c1sc(=S)n(-c2ccccc2)c1/N=C/c1ccc(O)cc1	broth dilution	MTCC 227	MIC	>1000 µg/mL
Cn1nc2c(=O)n(-c3c(Cl)cc(Cl)cc3Cl)nc(-c3ccccc3)c2c1-c1ccccc1	-	ATCC 27541	MIC	<0.0024 µg/mL
CC(C(=O)O)N1C(=O)CCSC1c1ccccc1	broth dilution	-	EC50	75.24 µM
Cc1ccc(-c2nnc(SCC(O)(Cn3cncn3)c3ccc(Cl)cc3Cl)n2N)cc1	broth dilution	IRFC 37	MIC	8 µg/mL
C[C@@H]1Oc2ccccc2/C(=N/OCc2ccccc2F)[C@H]1n1ccnc1	-	ATCC 10231	MFC	>64 µg/mL
O=C(Nc1ccc(Cl)cc1)c1ncccc1S	-	ATCC 44859	MIC	>125 µM
O=C(N/N=C/c1cc2ccccc2nc1Cl)c1sc(=S)n(-c2ccccc2)c1/N=C/c1ccccc1Cl	broth dilution	MTCC 227	MIC	500 µg/mL
C[C@H](n1nnc(CCN2CCN(C(c3ccccc3)c3ccccc3)CC2)n1)[C@](O)(Cn1cncn1)c1ccc(F)cc1F	-	-	MIC	4 µg/mL

For reference, 8 entries again:

C[C@@H]1Oc2ccccc2/C(=N/OCc2ccccc2F)[C@H]1n1ccnc1 ; strain or isolate: ATCC 10231 ; read-out: MFC ; value: >64 µg/mL
C[C@H](n1nnc(CCN2CCN(c3cccc(Cl)c3)CC2)n1)[C@](O)(Cn1cncn1)c1ccc(F)cc1F ; read-out: MIC ; value: 2 µg/mL
C[C@@H]1Oc2cc(Cl)ccc2/C(=N/OCc2ccc(Cl)cc2)[C@H]1n1ccnc1 ; strain or isolate: ATCC 10231 ; read-out: MFC ; value: >64 µg/mL
CC(=O)c1c(O)cc(O)c(C(C)=O)c1O ; read-out: EC50 ; value: >20 µg/mL
O=C(N/N=C/c1cc2ccccc2nc1Cl)c1sc(=S)n(-c2ccccc2)c1/N=C/c1cccc(O)c1 ; method: broth dilution ; strain or isolate: MTCC 227 ; read-out: MIC ; value: 250 µg/mL
C[C@@H](SC1COC(c2ccc(C(=O)Nc3ccc(C#N)cc3F)cc2)OC1)[C@](O)(Cn1cncn1)c1ccc(F)cc1F ; strain or isolate: SANK51486 ; read-out: MIC80 ; value: 0.008 µg/mL
Nc1ncc(/C=C/c2ccc([N+](=O)[O-])o2)nn1 ; read-out: MIC ; value: 10 µg/mL
CCOC(=O)c1cc(-c2ccc(Cl)cc2)n(CCn2c([N+](=O)[O-])cnc2C)c1C ; read-out: MIC ; value: >1024 µg/mL

ECn: concentration that inhibits the pathogen or its effect by n%. Rows are shuffled and stem from different studies. A number after MIC or MFC names an inhibition level or a share of isolates.